Measurements as given in patent publication US20170275639A1 (ARIZONA BOARD OF REGENTS ON BEHALF OF ARIZONA STATE …, published 2017).

B1: mHu-E16 (mammalian cell-produced Hu-E16) (antibody)
chain 1: QVQLVQSGAEVKKPGASVKVSCKASGYTFTDYWIEWVRQAPGQGLEWMGDILCGTGRTRYNEKLKARVTMTADTSTSTAYMELRSLRSDDTAVYYCARSASYGDYADYWGQGTTVTVSSASTKGPSVFPLAPSSKSTSGGTAALGCLVKDYFPEPVTVSWNSGALTSGVHTFPAVLQSSGLYSLSSVVTVPSSSLGTQTYICNVNHKPSNTKVDKRV[skipping human IgG1 Fc]
chain 2: DIVMTQSPDSLAVSLGERATINCKASQDVSTAVAWYQQKPGQPPKLLISWASTRHTGVPDRFSGSGSGTDFTLTISSLQAEDVAVYYCQQHYTTPLTFGQGTKLEIKRTVAAPSVFIFPPSDEQLKSGTASVVCLLNNFYPREAKVQWKVDNALQSGNSQESVTEQDSKDSTYSLSSTLTLSKADYEKHKVYACEVTHQGLSSPVTKSFNRGEC
B2: pHu-E16 (plant-derived humanized anti-West Nile virus MAb E16, produced in wild-type N. benthamiana) (antibody, human IgG1, kappa)
heavy: B1 chain 1 with R216K
light: B1 chain 2

Target: T1, WNV (strain New York 1999), infectious virus (West Nile virus, strain New York 1999, UniProt Q9Q6P4 291-791)
T1 sequence (looked up): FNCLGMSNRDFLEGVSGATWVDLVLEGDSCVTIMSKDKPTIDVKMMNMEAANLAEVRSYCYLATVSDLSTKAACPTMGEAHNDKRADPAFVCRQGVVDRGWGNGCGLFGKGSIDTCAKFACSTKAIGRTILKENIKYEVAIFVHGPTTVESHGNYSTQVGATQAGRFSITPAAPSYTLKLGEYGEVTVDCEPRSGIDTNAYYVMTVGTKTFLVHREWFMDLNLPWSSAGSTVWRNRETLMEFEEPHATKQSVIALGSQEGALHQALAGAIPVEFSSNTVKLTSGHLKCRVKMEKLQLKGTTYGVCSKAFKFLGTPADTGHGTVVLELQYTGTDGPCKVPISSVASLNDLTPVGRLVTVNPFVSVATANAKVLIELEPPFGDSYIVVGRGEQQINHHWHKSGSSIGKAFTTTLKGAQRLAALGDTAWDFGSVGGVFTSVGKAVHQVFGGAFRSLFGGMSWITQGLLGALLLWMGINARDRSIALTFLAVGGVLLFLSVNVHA
Experiment: cell-based or functional assay

Row | Binder | EC50, focus reduction neutralization assay (Vero cells) [ng/mL]
1 | B1 | 3.6
2 | B2 | 3.7

Positions count from the first letter of the chain named.
